Results of unrelated studies side by side (data: NIAID ChemDB).

All rows: growth or infection tests; agent: HIV-1; cell line: PBMC; measure: fold resistance

Neighbouring rows are from separate reports. An empty or dashed field is not shown. Fold resistance has wild type as its base.

smiles,strain or isolate,mutations,method,result
Nc1nc(NC2CC2)c2ncn([C@H]3C=C[C@@H](CO)C3)c2n1,7295-1 NRTI resistant recombinant,RT-D67N T69N K70R M184V T215F K219Q,RT activity,6.1
Nc1nc(=O)n([C@H]2CO[C@@H](CO)S2)cc1F,HXB2D (RT-K65R),RT-K65R,p24,2.17
CC(C)Nc1cccnc1N1CCN(C(=O)c2cc3cc(NS(C)(=O)=O)ccc3[nH]2)CC1,6 clinical isolates AZT-resistant,-,p24,1
O=c1[nH]cnc2c1ncn2[C@H]1CC[C@@H](CO)O1,RT-M184V XM-M184V,RT-M184V,p24,0.9
COc1ccc(S(=O)(=O)N(CC(C)C)C[C@@H](O)[C@H](Cc2ccccc2)NC(=O)O[C@H]2CO[C@H]3OCC[C@H]32)cc1,Clinical isolate,PR-L10I I15V E35D N37E K45R I54V L63P A71V V82T L90M I93L C95F,p24,1
S=C(NCCc1ccccn1)Nc1ccc(Br)cn1,NRTI resistant (RT Y181C) A17,RT-Y181C,p24,71.4
Nc1ccn([C@@H]2CS[C@H](CO)O2)c(=O)n1,4755-5 NRTI resistant recombinant,RT-M41L E44D D67N T69D Y118I M184V L210W T215Y,RT activity,>300
Cc1ccnc2c1NC(=O)c1cccnc1N2C1CC1,BCF06,RT-A98G K103R,-,1.2
C[C@H](CNC(=S)Nc1ccc(Cl)cn1)c1ccccc1,NNRTI-resistant (RT Y181C) A17,RT-Y181C,p24,14
Cc1cn([C@H]2C[C@H](N=[N+]=[N-])[C@@H](CO)O2)c(=O)[nH]c1=O,-,RT-T215Y K219Q,p24,8.5
Cc1cn([C@H]2C[C@H](F)[C@@H](CO)O2)c(=O)[nH]c1=O,K AZT-resistant (RT V75I F77L F116Y Q151M),RT-V75I F77L F116Y Q151M,antigen,0.6
CC(C)(C)NC(=O)[C@@H]1CN(Cc2cccnc2)CCN1C[C@@H](O)C[C@@H](Cc1ccccc1)C(=O)N[C@H]1c2ccccc2C[C@H]1O,Clinical isolate,PR-L10I K43T M46L I54L L63P A71T V82A L90M Q92K,p24,>76.9
Nc1ccn([C@H]2CC[C@@H](CO)O2)c(=O)n1,BCF11,RT-A98G K103R,-,0.333
Nc1ccn([C@H]2CC[C@@H](CO)O2)c(=O)n1,-,RT-T215Y K219Q,p24,1.5
Cc1cn([C@H]2C=C[C@@H](CO)O2)c(=O)[nH]c1=O,56252-1 NRTI resistant recombinant,RT-T69K K70G V75I F77L F116Y Q151M M184V,RT activity,20
Cc1csc(NC(=S)NC[C@H](C)c2ccccc2)n1,NNRTI-resistant (RT Y181C K103N) A17V,RT-Y181C K103N,p24,20
Cc1ccnc2c1NC(=O)c1cccnc1N2C1CC1,NRTI resistant (RT L74V M41L V106A T215Y) MDR,RT-L74V M41L V106A T215Y,p24,147
Nc1nc(=O)n([C@@H]2CO[C@H](CO)S2)cc1F,HXB2D (RT-M184V),RT-M184V,p24,3
C[C@@H](CNC(=S)Nc1ccc(Cl)cn1)c1ccccc1,NNRTI-resistant (RT Y181C) A17,RT-Y181C,p24,>260
O=c1[nH]cnc2c1ncn2[C@H]1CC[C@@H](CO)O1,HxB2D(RT-D67G),RT-D67G,p24,1.79
Cc1csc(NC(=S)N[C@H](C)c2ccccc2)n1,NNRTI-resistant (RT Y181C) A17,RT-Y181C,p24,>164
Cc1cn([C@H]2C[C@H](N=[N+]=[N-])[C@@H](CO)O2)c(=O)[nH]c1=O,472 clinical isolates AZT-resistant,-,p24,4.67
Nc1ccn([C@H]2CC[C@@H](CO)O2)c(=O)n1,Recombinant,RT-V75I F77L F116Y Q151M,p24,0.11
CC(C)OC(=O)OCOP(=O)(CO[C@H](C)Cn1cnc2c(N)ncnc21)OCOC(=O)OC(C)C,52534-2 NRTI resistant recombinant,RT-M41L T69ins L74V M184V L210W T215Y,RT activity,4.2
CC(C)c1nc(CN(C)C(=O)N[C@H](C(=O)N[C@@H](Cc2ccccc2)C[C@H](O)[C@H](Cc2ccccc2)NC(=O)OCc2cncs2)C(C)C)cs1,Clinical isolate,PR-L10I I15V E35D N37E K45R I54V L63P A71V V82T L90M I93L C95F,p24,>23
Cc1ccc(NC(=S)N[C@H](C)c2cccc3ccccc23)nc1,NNRTI-resistant (RT Y181C K103N) A17V,RT-Y181C K103N,p24,236
CC(C)(C)NC(=O)[C@@H]1C[C@@H]2CCCC[C@@H]2CN1C[C@@H](O)[C@H](Cc1ccccc1)NC(=O)[C@H](CC(N)=O)NC(=O)c1ccc2ccccc2n1,Clinical isolate,PR-L10I K14R R41K M46L I54V L63P A71V V82A L90M I93L,p24,19
Cc1cn([C@H]2C[C@H](N=[N+]=[N-])[C@@H](CO)O2)c(=O)[nH]c1=O,Recombinant,RT-V75I F77L F116Y Q151M,p24,0.1
Cc1cn([C@H]2C[C@H](N=[N+]=[N-])[C@@H](CO)O2)c(=O)[nH]c1=O,XM-ABC-resistant,RT-K65R L74V M184V Y115F,p24,0.3
Cc1cn([C@H]2C[C@H](N=[N+]=[N-])[C@@H](CO)O2)c(=O)[nH]c1=O,VAU (RT-A98G),RT-A98G,-,1
Nc1ccn([C@H]2CC[C@@H](CO)O2)c(=O)n1,HxB2D(RT-D67G),RT-D67G,p24,5.85